Test results published in patent US10174401B2, “Methods for binding and precipitating gold using microbial-derived metallophores and their uses” (McMaster University, priority 2013, dated 2019).
Read-outs that look alike come from different tables or passages of the source. *1 amine or outer side, *2 acyl side, *3 side chain or, on linkers, in order; H or OH if unused. Where a SMILES comes first, the peptide text is derived from it. [ ]: non-standard residue; d: D form. The star is where a group is joined. ξ: configuration not given here. NH(1-OH-2-oxopiperidin-3-yl) = O=C1C(N*)CCCN1O; ξOrn(N(OH)CHO) = NC(CCCN(O)C=O)C(=O)O; ξAsp(βξ-Me) = CC(C(=O)O)C(N)C(=O)O; X2 = C/C=C(/N[*:1])C(=O)[*:2]; X1 = CC(N)C(O)C(C)C(=O)*

Tested on: D. acidovorans
Set-up: species or system Delftia acidovorans

C/C=C(/NC(=O)CNC(=O)C(C)NC(=O)C(NC(=O)C(C)C(O)C(C)N)C(C)C(=O)O)C(=O)NC(CCCN(O)C=O)C(=O)NC(C)C(=O)NC(CCCNC(=N)N)C(=O)NC1CCCN(O)C1=O (stereo not drawn) [delftibactin A] (X1-[ξAsp(βξ-Me)]AG[X2][ξOrn(N(OH)CHO)]AR-{NH(1-OH-2-oxopiperidin-3-yl)}; configuration not given here)
concentration in supernatants (D. acidovorans culture): > 200 µM | [Delftibactin] (Media [Iron] 0, 48 h): 205.8 ± 28.0 µM | [Delftibactin] (Media [Iron] 100 nM, 48 h): 196.1 ± 30.7 µM | [Delftibactin] (Media [Iron] 1 μM, 48 h): 149.3 ± 21.0 µM | [Delftibactin] (Media [Iron] 10 μM, 48 h): 21 ± 9.4 µM | [Delftibactin] (Media [Iron] 100 μM, 48 h): 2.2 ± 1.4 µM
